From paper PMC8121815 (Nature Communications, 2021)

What was measured:
[1] = target: hTOM70/N-peptide complex (human); assay: ITC
Hsp90/TOM70 interaction = assay type: binding, human
hTOM70 = assay type: binding, human
hTOM70 ΔN1 (60–608) = assay type: binding, human
hTOM70 ΔN2 (106–608) = assay type: binding, human
hTOM70 ΔN3 (235–608) = assay type: binding, human

C-peptide (SARS-CoV-2 orf9b core sequence 44-70) (from UniProt P0DTD2 44-70)
pKd [1]: 6.38

SARS-CoV-2 orf9b: 98-amino acid accessory protein of SARS-CoV-2; homodimeric alone, helical when bound to TOM70
effect on binding of EEVD motif / N-peptide to hTOM70 (Hsp90/TOM70 interaction): allosterically inhibits substrate binding at the NTD-pocket; also recorded: severely disrupts binding of the EEVD motif at the NTD-pocket | complex formation (hTOM70): did not yield a complex | co-elution (complex formation) (hTOM70 ΔN1 (60–608)): co-eluted with SARS-CoV-2 orf9b | co-elution (complex formation) (hTOM70 ΔN2 (106–608)): co-eluted with SARS-CoV-2 orf9b | co-elution (complex formation) (hTOM70 ΔN3 (235–608)): co-eluted with SARS-CoV-2 orf9b

pKd: −log10 of the molar value. Entries after “also recorded” stand apart in the source; their conditions may differ.
